Results reported in patent US20150104459A1, “Compositions and Methods for the Therapy and Diagnosis of Influenza” (published 2015).

B1: TCN-531 (5091_H13) (antibody, V domains shown)
VH: EVQLVESGGDLVQPGRSLKLSCTGSGFTFGDYGVTWVRQAPGKGLEWVGFIRTRPWGGTADTAASVKGRFTISRDDSKSLAYLQMNSLKTEDTAVYYCCRDAPPNVEVASMTNWYFDLWGRGTLVTVSS
VL: DIQLTQSPSSLSASVGDRVTITCRASQGILNCLAWYQQKPGKVPNLLMYAASTLQSGVPSRFSGSGFGTDFTLTISSLQPEDVATYYCQTYGGVSTFGGGTKVEIR
B2: TCN-540 (5060_F05) (antibody, V domains shown)
VH: QVQLVQSGGGVVQPGRSLRLSCAASGFTFSSYAMHWVRQAPGKGLEWVAIISYDGNDQYYTDSVKGRFTISRDSSKVYLQMHRLRPEDTAVYYCAKEFETSGYFHGSFDYWGQGILVTVSS
VL: QSALTQPASVSGSPGQSITISCTGTSSDVGGYNYVSWYQQHPGKAPKLLIYEVTNWPSGVSNRFSGSKSGNTASLTISGLQAEDEADYYCSSYAGSSTWVFGGGTRVTVL
B3: TCN-558 (5248_H10b) (antibody, V domains shown)
VH: QVQLVQSGSEVKKPGTSVKVSCTASGSVFTNYGISWVRQAPGQGLEWMGGIIPLFGAAKYAQKFQGRVTITADESTKTVYMELSRLTSKDTAIYFCAKAPRVYEYYFDQWGQGTPVTVSS
VL: EIVMTQFPATLSVSPGERVTLSCRASQSVSNNLAWYQQKPGQPPRLLIYDASTRATGVPAKFSGTGSGTEFTLSISSLQSEDFAVYYCQQYHNWPPSYSFGLGTKLEIK
B4: TCN-543 (5081_G23) (antibody, V domains shown)
VH: QVHLVQSGAEVRKPGDSVKVSCKTSGYTFSTYPVAWVRQVPGQGLEWMGWISTYNGNTNFAQNFQGRVTLTTDTTTNTAYMEVRSLKFDDTAVYYCARVEGSYRDFWNNQNRFDPWGQGTLVTVSS
VL: SYVLTQPPSVSVAPGQTARISCGGSNIGGKSVHWYQQKPGQAPVLVVYDDSGRPSGIPERFSGSNSGDTATLTISRVEAGDEADYFCQVWDNFGGVFGTGTKVTVL
B5: TCN-539 (5056_A08) (antibody, V domains shown)
VH: QVQLVESGGGVVQPGRSLRLSCAASEITFITYAMHWVRQAPGKGLEWVALISDDGSNKFYADSVKGRFTISRDNSKNTLYLQMNSLRAEDTAAYYCAREGVYFDSGTYRGYFDYWGQETLVTVSS
VL: EIVLTQSPATLSLSPGERATLSCRASQSVSSYLAWYQQKPGQAPRLLIYDASNRATGIPARFSGSGSGTDFTLTISSLEPEDFAVYYCQQRSHWPPITFGQGTRLEIK
B6: TCN-546 (5089_L08) (antibody, V domains shown)
VH: QVQLQQWGAGLLKPSETLSLTCGVYGGSLSDYYWSWIRQPPGKGLEWIGEINHSGGTNYNPSLKRRVTISVDTSKKQFSLKMNSVTAADTAVYYCARGTDPDTEVYCRAGNCAAFDFWGQGTLVTVSS
VL: EIVLTQSPGTLSLSPGERATLSCRASHFVIGRAVAWYQQKPGQAPRLLIYGASSRATGIPDRFSGSGSGTDFTLTISRLETEDFAVFYCQHYGSSPRYAFGQGTKLEIK
B7: TCN-557 (5081_A04) (antibody, V domains shown)
VH: QVQLVQSGAEVKKPGASVKVSCKASGHTFTGYYIHWVRQAPGQGLEWMGWINPDSGATSSAQNFQGRVTMTGDTSSSTAYMELSRLSFDDTAVYYCARVLFTSPFDFWGEGTLVTVSS
VL: QAVVTQEPSLAVSPGGTVTLTCGSSTGAVTRGHYPYWFQQKPGQAPRALIYDSAGNRHSWTPARFSGSLLGGKAALTLSGAQPEDEAEYYCLLSYSGVWVFGGGTKLTVL
B8: TCN-550 (5096_F06) (antibody, V domains shown)
VH: QVQLQESGPGLVKPSETLSLTCTVSGASINSHYWSWIRQPPGKGLEWIGYVYYSGSTTYNPSLKSRVTLSVDTSKNQFSLNLSSVTAADTAFYYCARHPYDVLTGSGDWFDPWGQGTLVTVSS
VL: SYVLTQAPSVSVAPGQTARITCGGNAIGSKKVHWYQHKAGQAPVLVVYDDTDRPSGIPERFSGSNSWSTATLTINRVEAGDEADYYCQVWDFTIDHVVFGGGTKLTVL
B9: TCN-545 (5082_I15) (antibody, V domains shown)
VH: QVQLQQWGAGLLKPSETLSLSCAVFGGSFSDYYWTWIRQPPGKGLEWIGEIKHSGRTNYNPSLESRVTISVDTSKNQFSLKLSSVTAADTAIYYCARGTDPDTEGYCRSGSCSAFDFWGQGTLVTVSS
VL: EIVLTQSPGTLSLSPGERATLSCRASHFVNYRSLAWYQQTPGQVPRLLIYGASTRATGIPDRFSGSGSGTDFTLTISRLEPEDFAVYFCQQYGGSPRYTFGQGTRLEIK
B10: TCN-549 (5092_P04) (antibody, V domains shown)
VH: QVQLVQSGAEVKKPGASVKVSCKASGYTFTGYYMHWVRQAPGQGLEWMGWINPNSGDTNYAQKFQGRVTMTRDTSITTAYMELSSLRSDDTAVYYCARDSPYSSSWSFFDYWGQGPLVTVSS
VL: DIVMTQSPDSLAVSLGERATINCKSSQSVLYSSNNKSHLAWYQQKPGQPPKLLIYWASTRESGVPDRFSGSGSGTDFTLIISSLQAEDVAVYYCQQYYFSPLTFGGGTKVEIK
B11: TCN-554 (5277_M05) (antibody, V domains shown)
VH: QVQLVQSGADLKKPGASVKVSCKASGYTFTDYYIHWVRQAPGQGLEWMGWINPESGDTKYAQKFQGRVTMTRDTSITTAYMELGRLRSDDTAVYYCARDVSTTWSWFAPWGQGTLVTVSS
VL: DIVMTQSPDSLAVSLGERATINCRSSQSIFHNSNNENYLAWYQQKPGQPPKLLIYWASTRESGVPDRFSGSGSGTDFTLTISSLQAEDVAVYFCQQYYNAPLTFGGGTKVEIK
B12: TCN-547 (5092_F11) (antibody, V domains shown)
VH: QVQLQESGPGLVKPSQTLSLTCTVSGDSISSVDHYWSWIRQHPVKGLEWIGFMYYSASTYYNPSLKSRVTISTDTSKNQFSLRLSSVTAADTAVYYCARGTCAGDCSLHYYYYGLDVWGQGRTVTVSS
VL: DIQMTQSPSSLSASVGDRVTITCRASQSISSYLNWYQHKPGKAPKVLMYAVSILQSGVPSRFSGSGSGADFTLTISSLQPEDFATYYCQQSYSSPLTFGGGTKVEIK
B13: TCN-551 (5243_D01) (antibody, V domains shown)
VH: EVQLVQSGSEVKKPGESLKISCKGSGYSFSNYWIGWVRHMPGKGLEWMGIIYPGDSDTRYSPSFQGQVTMSADKSSSTVYLQWSSLKASDTAIYYCARRGGHSFGYGSGGDTHSEFDSWGQGTLVTVSS
VL: QSVLTQSPSVSAAPGQKVTISCSGSDSNIGDYFVCWYQHLPGKPPQLLIYENNKRPSGIPDRFSGSKSGTSATLGITGIQTGDEADYYCATWDGSLSAWVFGGGTKLTVL
B14: TCN-542 (5079_A16) (antibody, V domains shown)
VH: QVQLQESGPGLVKPSQTLSLTCTVSGGSISSGNYYWNWVRQHPGKGLEWIGYIYYRGSTFYNPSLKSRVTISIDTSKNQFSLRLSSVTAADTAVYYCAKDTRSSLDNYQYGMDVWGQGTTVTVSS
VL: QTVVTQEPSLTVSPGGTVTLTCASSTGAVTSSYFPNWFQQKPGQAPRPLIYSTTIRHSWTPARFSGSLLGGKAALTLSGVQPEDEADYYCLLYSGGDPVAFGGGTKLTVL
B15: TCN-538 (3206_O17) (antibody, V domains shown)
VH: QITLKESGPTLVKPTQTLTLTCVFSGFSLSITGVRVGWIRQPPGKALEWLALISWDDEKHYSPSLQSRLTITKDTSKNQVVLTMTNLDPVDTATYYCARSTDRGHVLRYFGWMLPGDAFDVWGQGTMVTVSS
VL: DIVMTQSPDFLPVSLGERATINCKSSQRVLYSSNNKNYLAWYQLKPGQPPKLIIYWASTRESGVPDRFSGSGSGTEFTLTISSLQAEDVAVYYCQQYYSRPYTFGQGTKLEIK
B16: TCN-544 (5082_A19) (antibody, V domains shown)
VH: QVQLQESGPGLVKPSETLSLTCTVSRGSIGHYFWSWIRQPPGKGLEWIGYISYSGSTKYNPSLRSRVTISVDTSKNQFSLNLNSVTATDTALYYCAREDYDILTGAGPGMEVWGQGTTVTVSS
VL: QSMLTQPPSASGTPGQRVTISCSGSSSNIGSNTVNWFKHLPGTAPKLLIYRNDLRPSGVPDRFSGSKSGTSASLAISGLQSEDEADYYCATWDDSLNGFYVFGTGTKVTVL
B17: TCN-548 (5092_P01) (antibody, V domains shown)
VH: QVQLQESGPGLVKPSETLSLTCTVSSGPMSDYYWSWIRQPPGKGLEWIGHVSVSHGGRTKSNPSVMSRVTISVETSKNQFSLKLTSVTAADTAVYYCARLNYYDRSGYHSPDGPSNNWFDPWGQGTLVTVSS
VL: B10 VL with S37N, H38Y, F68I, T75A, I80T, Y98F, F99A, S100T, L102R, G106Q

Target: recombinant homotrimeric HA, A/Wisconsin/67/05 H3N2 (Influenza A virus A/Wisconsin/67/05 …)
Assay: not given

Binder | Trimeric HA Binding: RLU [RLU]
B1 | 4160
B2 | 53000
B3 | 26600
B4 | 37000
B5 | 58800
B6 | 28500
B7 | 46100
B8 | 37800
B9 | 32000
B10 | 51600
B11 | 25300
B12 | 6970

Target: recombinant homotrimeric HA, A/Vietnam/1203/04 H5N1 (Influenza A virus A/Vietnam/1203/04 …)
Assay: not given

Binder | Trimeric HA Binding: RLU [RLU]
B13 | 41900
B7 | 21300

Target: recombinant homotrimeric HA, A/Indonesia/5/05 H5N1 (Influenza A virus A/Indonesia/5/05 …)
Assay: not given

Binder | Trimeric HA Binding: RLU [RLU]
B2 | 2570
B6 | 40900
B7 | 22200
B8 | 9000

Target: recombinant homotrimeric HA, A/swine/Ontario/01911-2/99 H4N6 (Influenza A virus …)
Assay: trimeric HA microarray; transfection supernatant set 5

Binder | Trimeric HA Binding: RLU [RLU]
B3 | 10000
B7 | 41500
B14 | 14300

Target: recombinant homotrimeric HA, A/California/4/09 H1N1 (Influenza A virus A/California/4/09 …)
Assay: as above

Binder | Trimeric HA Binding: RLU [RLU]
B2 | 984
B3 | 20200
B15 | 16000
B13 | 46100
B6 | 1080
B7 | 44400
B8 | 628
B16 | 706
B17 | 818
B10 | 622

Target: recombinant homotrimeric HA, A/Solomon Islands/3/06 H1N1 (Influenza A virus A/Solomon …)
Assay: as above

Binder | Trimeric HA Binding: RLU [RLU]
B3 | 36100
B4 | 43500
B5 | 871
B15 | 1960
B13 | 43500
B8 | 758
B16 | 997
B17 | 750
B10 | 640
B12 | 1080

Where a chain is given by its changes, count along the chain named.
